Reference: paper PMC10877727
The exact form of at least one protein or probe is not confirmed. The comparison behind a weaker result is the experiment's own reference, which may not be listed here. At least one verdict was read from the data and is not stated in words by the source.

What was measured:
[1] = target: TraN_G47A-G48A (Enterococcus faecalis plasmid pIP501) (UniProt Q7BVV5); test: MST; conditions: Kd in low micromolar range, value only in Figure 4B; MST in PBS-T (pH and temperature not stated); 50 nM RED-tris-NTA labelled His-protein, dsDNA 0.781 nM to 12.8 uM; Monolith NT.115, 60% LED and MST power; recombinant protein; residues 1-122; protein details: N-terminal 7xHis (pQTEV)
[2] = target: TraN_R23A-N24A-Q28A (Enterococcus faecalis plasmid pIP501) (UniProt Q7BVV5); test: MST; conditions: Kd in low micromolar range, value only in Figure 4B; MST in PBS-T (pH and temperature not stated); 50 nM RED-tris-NTA labelled His-protein, dsDNA 0.781 nM to 12.8 uM; Monolith NT.115, 60% LED and MST power; recombinant protein; residues 1-122; protein details: N-terminal 7xHis (pQTEV)

## AGGGCGCACTTATACGCAGTAACTTCGTTACTTC (double strand) [random DNA 34-mer]
[1]
  binding result: binds more weakly
[2]
  binding result: binds more weakly
